IC50 data for one molecule are collected here from ChEMBL document CHEMBL4425145, “Discovery of New Anti-Schistosomal Hits by Integration of QSAR-Based Virtual Screening and High Content Screening” (J Med Chem, 2016).

Sequences of proteins named here, by UniProt entry; tags and fusion partners are left off. Residues count along the entry.
UniProt Q962Y6, 1-598: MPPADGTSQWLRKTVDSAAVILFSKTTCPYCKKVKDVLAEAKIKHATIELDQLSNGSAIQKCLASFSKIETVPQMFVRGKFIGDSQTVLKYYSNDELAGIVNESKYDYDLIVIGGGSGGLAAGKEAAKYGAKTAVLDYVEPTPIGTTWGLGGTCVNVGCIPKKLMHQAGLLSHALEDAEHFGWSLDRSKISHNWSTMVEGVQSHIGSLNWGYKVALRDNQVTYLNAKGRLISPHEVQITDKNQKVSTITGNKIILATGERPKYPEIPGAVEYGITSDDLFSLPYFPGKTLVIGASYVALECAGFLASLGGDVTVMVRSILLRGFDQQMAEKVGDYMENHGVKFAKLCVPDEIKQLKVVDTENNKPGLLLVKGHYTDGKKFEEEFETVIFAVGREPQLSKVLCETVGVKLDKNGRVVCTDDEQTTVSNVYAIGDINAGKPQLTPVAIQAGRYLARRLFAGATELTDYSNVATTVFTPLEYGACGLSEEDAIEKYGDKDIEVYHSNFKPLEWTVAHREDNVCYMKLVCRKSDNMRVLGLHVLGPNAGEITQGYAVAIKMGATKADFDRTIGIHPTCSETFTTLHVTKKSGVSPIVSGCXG

The test deals with Thioredoxin glutathione reductase (Schistosoma mansoni, UniProt Q962Y6). Nature of the test: Inhibition of Schistosoma mansoni TGR.

Molecules are shown by their SMILES.

For `CCc1nc2c([nH]1)c1no[n+]([O-])c1c1no[n+]([O-])c21`, half-maximal inhibition (IC50) required 15.8 µM. In other words, the double-digit micromolar range.
